Pooled drug test results. Numbers come from NIAID ChemDB, via PubChem.

All rows: tests in culture; species: HIV-1; measure: EC50

Rows are shuffled and stem from different studies.

structure | changes | method | strain | cell line | value
CCC(=O)c1ccc(F)c([C@@H]2C[C@@H]2NC(=O)Nc2ccc(C#N)cn2)c1O | NNRTI-resistant (RT V106I) | β-galactosidase / luminescence | LAI | TZM-bl | 0.00078 µM
CC(C)C1=C2[C@H]3CC[C@@H]4[C@@]5(C)CC[C@H](OC(=O)[C@H]6C[C@@H](C(=O)O)C6(C)C)C(C)(C)[C@@H]5CC[C@@]4(C)[C@]3(C)CC[C@@]2(CC(=O)NCC(F)(CCN)NC(=O)c2ccc(Cl)cc2)CC1=O | - | p24 / ELISA | 92HT599 | MT-2 | <1 µM
C[C@H]1[C@H](O)[C@@H](C)/C=C/C=C/C=C/C=C/C=C/C=C/C=C/[C@H](O[C@@H]2O[C@H](C)[C@@H](O)[C@H](N)[C@@H]2O)C[C@@H]2O[C@](O)(C[C@@H](O)C[C@@H](O)CC[C@H](O)[C@@H](O)C[C@@H](O)CC(=O)O[C@H]1C)C[C@H](O)[C@H]2C(=O)O | - | p24 / RT activity | 92UG037 CLADE A R5 (NSI) | PBMC | 1.5 µM
O=C(COc1ccc(Cl)cc1C(=O)c1ccccc1)Nc1ccc2cn[nH]c2c1 | RT-Y181C | β-galactosidase | HXB2 | HeLa + HELA CD4+ | 0.011–0.1 µM
CC(C)C1=C2[C@H]3CC[C@@H]4[C@@]5(C)CC[C@H](OC(=O)[C@H]6C[C@@H](C(=O)O)C6(C)C)C(C)(C)[C@@H]5CC[C@@]4(C)[C@]3(C)CC[C@@]2(CCNC(=O)CN2CCS(=O)(=O)CC2)CC1=O | - | p24 / ELISA | 92HT599 | MT-2 | <1 µM
Cc1cc2cn[nH]c2cc1NC(=O)COc1ccc(Cl)cc1C(=O)c1cccc(C#N)c1 | RT-V106A Y181C | β-galactosidase | HXB2 | HeLa + HELA CD4+ | 0.011–0.1 µM
CCN1c2ncc(CCOc3ccc(-c4ccncc4)cc3C)cc2C(=O)N(C)c2cccnc21 | - | p24 | IIIB | C8166 | <0.01 µM
Cc1ccc(C)n1-c1ccc(C(=O)O)c(O)c1 | - | luciferase / cell fusion | 93UG065 X4 CLADE D | PBMC/5.25M7 | 25.73 µM
Cc1cc(C)cc(C(=O)c2cc(Cl)ccc2OCC(=O)Nc2ccc(S(N)(=O)=O)cc2C)c1 | RT-K103N | β-galactosidase | HXB2 | HeLa + HELA CD4+ | <0.01 µM
C[C@@H]1CN(C(=O)c2ccccc2)CCN1C(=O)C(=O)c1c[nH]c2c(NC(=O)c3ccc(B(O)O)cc3)cccc12 | - | luciferase / reporter gene | - | HeLa | <1 µM
CC(C)C1=C2[C@H]3CC[C@@H]4[C@@]5(C)CC[C@H](OC(=O)[C@H]6C[C@@H](C(=O)O)C6(C)C)C(C)(C)[C@@H]5CC[C@@]4(C)[C@]3(C)CC[C@@]2(CCNC(=O)c2ccc(N3CCN(C)CC3)cc2)CC1=O | - | p24 / ELISA | 92HT599 | MT-2 | <1 µM
CCN1c2ncc(CCOc3ccc(-c4ccc(CC(=O)O)cc4OC)cc3C)cc2C(=O)N(C)c2cccnc21 | RT-K103N Y181C | p24 | - | C8166 | 0.01–0.05 µM
CC(C)C1=C2[C@H]3CC[C@@H]4[C@@]5(C)CC[C@H](OC(=O)[C@H]6C[C@@H](C(=O)O)C6(C)C)C(C)(C)[C@@H]5CC[C@@]4(C)[C@]3(C)CC[C@@]2(CC(=O)NCc2ccc(S(C)(=O)=O)cc2)CC1=O | - | p24 / ELISA | 92HT599 | MT-2 | <1 µM
Cc1cc(S(N)(=O)=O)ccc1NC(=O)COc1ccc(Cl)cc1C(=O)c1cc(F)cc(C#N)c1 | RT-G190A | β-galactosidase | HXB2 | HeLa + HELA CD4+ | <0.01 µM
CCN1c2ncc(CCOc3ccc(-c4ccc(Cl)c(CC(=O)O)c4)cc3C)cc2C(=O)N(C)c2cccnc21 | RT-K103N Y181C | p24 | - | C8166 | 0.01–0.05 µM
CC(=O)Nc1ccc(F)c2c(C(=O)C(=O)N3CCC(=C(C#N)c4ccccn4)CC3)c[nH]c12 | - | luciferase / reporter gene | - | HeLa | <1 µM
CCN1c2ncc(CCOc3ccc(Nc4cccc(CC(=O)O)c4)cc3C)cc2C(=O)N(C)c2cccnc21 | - | p24 | IIIB | C8166 | <0.01 µM
Cc1cc(S(N)(=O)=O)ccc1NC(=O)COc1ccc(Cl)cc1C(=O)c1cc(F)cc(C(F)(F)F)c1 | RT-P236L | β-galactosidase | HXB2 | HeLa + HELA CD4+ | <0.01 µM
COC(=O)NCCCCNC(=O)Nc1cccc2c(C(=O)C(=O)N3CCN(C(=O)c4ccccc4)C[C@H]3C)cn(C(=O)NCCCCNC(=O)OC)c12 | - | luciferase / reporter gene | - | HeLa | <1 µM
CC(C)C1=C2[C@H]3CC[C@@H]4[C@@]5(C)CC[C@H](OC(=O)[C@H]6C[C@@H](C(=O)O)C6(C)C)C(C)(C)[C@@H]5CC[C@@]4(C)[C@]3(C)CC[C@@]2([C@@H](O)CNC(=O)c2ncccn2)CC1=O | - | p24 / ELISA | 92HT599 | MT-2 | <1 µM
CCN1c2ncc(CCOc3ccc(-c4cccc(CC(=O)O)c4)cc3)cc2C(=O)N(C)c2cccnc21 | - | p24 | IIIB | C8166 | <0.01 µM
Cc1cc2[nH]cnc2cc1NC(=O)COc1ccc(Cl)cc1C(=O)c1cc(F)cc(C(F)(F)F)c1 | RT-K101E | β-galactosidase | HXB2 | HeLa + HELA CD4+ | <0.01 µM
CC(C)C1=C2[C@H]3CC[C@@H]4[C@@]5(C)CC[C@H](OC(=O)[C@H]6C[C@@H](C(=O)O)C6(C)C)C(C)(C)[C@@H]5CC[C@@]4(C)[C@]3(C)CC[C@@]2([C@@H](O)CNCc2ccc(N3CCOCC3)cc2)CC1=O | - | p24 / ELISA | 92HT599 | MT-2 | <1 µM
CCN1c2ncc(CCOc3ccc(C(=O)N=c4ccccn4O)cc3C)cc2C(=O)Nc2c(C)ccnc21 | RT-K103N Y181C | p24 | - | C8166 | <0.01 µM
Cc1cc(C#N)cc(C(=O)c2cc(Cl)ccc2OCC(=O)Nc2cnc(S(N)(=O)=O)cc2C)c1 | RT-P225H | β-galactosidase | HXB2 | HeLa + HELA CD4+ | <0.01 µM
C[C@@H]1CN(C(=O)c2ccccc2)CCN1C(=O)C(=O)c1c[nH]c2c(N3CCN(CCN(C)C)C3=O)cccc12 | - | luciferase / reporter gene | - | HeLa | <1 µM

A second listing of 2 rows from above:

structure | changes | method | strain | cell line | value
CC(C)C1=C2[C@H]3CC[C@@H]4[C@@]5(C)CC[C@H](OC(=O)[C@H]6C[C@@H](C(=O)O)C6(C)C)C(C)(C)[C@@H]5CC[C@@]4(C)[C@]3(C)CC[C@@]2([C@@H](O)CNC(=O)c2ncccn2)CC1=O | - | p24 / ELISA | 92HT599 | MT-2 | <1 µM
CCN1c2ncc(CCOc3ccc(-c4ccc(Cl)c(CC(=O)O)c4)cc3C)cc2C(=O)N(C)c2cccnc21 | RT-K103N Y181C | p24 | - | C8166 | 0.01–0.05 µM

a–b is a range or a potency band. ECn is the concentration giving n% inhibition of infection, replication or growth. An empty or dashed field is not shown.